# Source: US20170280728A1, “ANTIMICROBIAL COMPOSITIONS AND METHODS OF THEIR USE” (CMS TECHNOLOGY, INC.., priority 2014, published 2017)
# Tested on: Salmonella enterica serovar Anatum (ATCC #9270)
# Test: Salmonella Assay (liquid sanitizer exposure, log reduction)
# Format: cell-based
# Details: 15 ppm chlorine, 0 ppm copper; Solution pH 6.0; Control Sample Baseline 6.75 log; n = 3
smiles,measurement,value
OCl,Treated Sample Reduction,4.77 log
